Measured values from several laboratories, pooled; numbers as filed in NIAID ChemDB.

Common to all: whole-cell or culture tests; species: Mycobacterium kansasii; read-out: MIC

Blank or dashed fields: not listed here. Lines come from different laboratories, so protocols vary.

structure	strain	read by	conditions	result
O=C(N[C@@H](Cc1ccccc1)c1cnc(-c2ccccc2)[nH]1)OCc1ccccc1	My 6509/96		14 d	>250 µM
COc1ccc2oc(=O)n(-c3ccc(Br)cc3)c(=S)c2c1	My 235/80		21 d	32 µM
N/C(=N\N=C\c1ccccc1)SCc1ccccc1	6509/96	broth dilution	14 d	125 µM
CC(C)[C@H](NC(=O)OCc1ccccc1)c1cnc(-c2ccc([N+](=O)[O-])cc2)[nH]1	My 235/80		14 d	62.5 µM
Cc1ccc2oc(=S)n(-c3ccc(Br)cc3)c(=S)c2c1	My 235/80		21 d	4 µM
O=C(OCc1ccccc1)N1CCC[C@H]1c1cnc(-c2ccc([N+](=O)[O-])cc2)[nH]1	My 235/80		21 d	250 µM
O=C(NC1CCCCC1)N(C(=O)c1cnccn1)C1CCCCC1	235/80		7 d	500 µM
N/C(=N\N=C\c1ccccc1O)SCc1ccc(Cl)cc1	6509/96	broth dilution	14 d	32 µM
Cc1ccc(-n2c(=S)oc3ccc(F)cc3c2=S)cc1	My 235/80		21 d	8 µM
N/C(=N\N=C\c1ccccc1)SCc1cccc(Cl)c1	ATCC 12478	broth dilution	21 d	62.5 µM
O=C(Oc1ccc(Cl)cc1)c1cnccn1	6509/96		21 d	500 µM
Cc1ccc(CS/C(N)=N/N=C/c2ccccc2)cc1	6509/96	broth dilution	14 d	62.5 µM
O=C(Oc1ccc(Cl)cc1C(=O)Nc1ccc(Cl)cc1)c1cnccn1	6509/96		14 d	2 µM
CC(C)C[C@H](NC(=O)OCc1ccccc1)c1cnc(-c2ccccc2)[nH]1	My 235/80		7 d	>250 µM
O=C(Nc1cccc(C(F)(F)F)c1)c1cc(Cl)ccc1OS(=O)(=O)c1ccccc1	6509/96		14 d	16 µM
N/C(=N\N=C\c1cc(Cl)cc(Cl)c1O)SCc1cccc(Cl)c1	ATCC 12478	broth dilution	14 d	32 µM
O=C(Nc1ccc(C(F)(F)F)cc1)c1cc(Cl)ccc1OS(=O)(=O)c1ccccc1	235/80		21 d	125 µM
O=C(Oc1cc(Cl)ccc1C(=O)Nc1cccc(Br)c1)c1cnccn1	6509/96		7 d	2 µM
N/C(=N\N=C\c1cc(Br)ccc1O)SCc1ccc(C(F)(F)F)cc1	6509/96	broth dilution	14 d	32 µM
C[C@H](NC(=O)OCc1ccccc1)c1cnc(-c2ccc([N+](=O)[O-])cc2)[nH]1	My 6509/96		7 d	>125 µM
O=C(Nc1cccc(Br)c1)c1cc(Cl)ccc1OS(=O)(=O)c1ccccc1	6509/96		7 d	8 µM
O=C(Oc1cc(Cl)ccc1C(=O)Nc1ccc(Cl)c(Cl)c1)c1cnccn1	235/80		14 d	4 µM
Cc1ccc(-n2c(=S)oc3ccc(Br)cc3c2=S)cc1	My 235/80		14 d	4 µM
C[C@@H](NC(=O)OCc1ccccc1)c1cnc(-c2ccc([N+](=O)[O-])cc2)[nH]1	My 6509/96		21 d	>125 µM
Fc1cccc(-n2c(=S)oc3ccc(Br)cc3c2=S)c1	My 235/80		21 d	16 µM
O=C(Nc1cccc(F)c1)c1cc(Cl)ccc1OS(=O)(=O)c1ccccc1	235/80		7 d	32 µM
O=C(Oc1cc(Cl)ccc1C(=O)Nc1cccc(Cl)c1)c1cnccn1	6509/96		7 d	4 µM
N/C(=N\N=C\c1cc(Cl)ccc1O)SCc1cccc(Cl)c1	ATCC 12478	broth dilution	21 d	32 µM
O=C(Nc1cccc(Br)c1)c1ccc(Cl)cc1OS(=O)(=O)c1ccccc1	6509/96		7 d	32 µM
NNC(=O)c1ccncc1	235/80		7 d	>250 µM

Again, the opening 2 rows:

structure | strain | read by | conditions | result
O=C(N[C@@H](Cc1ccccc1)c1cnc(-c2ccccc2)[nH]1)OCc1ccccc1 | My 6509/96 |  | 14 d | >250 µM
COc1ccc2oc(=O)n(-c3ccc(Br)cc3)c(=S)c2c1 | My 235/80 |  | 21 d | 32 µM